Measured values reported in PMC10140725 (Scientific Reports, 2023).

Tests used:
[1] = target: T1, hemagglutinin (HA) of H1N1 influenza A strain A/Denver/57/1957, mature HA1/HA2 (Influenza A virus H1N1, strain …); experiment: crystal structure; conditions: both partners purified
T1 construct: also called A/Denver/57 HA; A/Denver/1957 HA; copies: 3 + 3

[2] = target: T2, hemagglutinin (HA) of H1N1 influenza A strain A/Hickox/JY2/1940, mature HA1/HA2 trimer (Influenza A virus H1N1, …); experiment: SEC; conditions: both partners purified
T2 construct: also called 6ONA; copies: 3 + 3

B1: anti-influenza head-binding antibody C05 fragment antigen binding (Fab) (Fab, V domains shown)
VH: EVQLQESGGGLVQPGESLRLSCVGSGSSFGESTLSYYAVSWVRQAPGKGLEWLSIINAGGGDIDYADSVEGRFTISRDNSKETLYLQMTNLRVEDTGVYYCAKHMSMQQVVSAGWERADLVGDAFDVWGQGTMVTVSS
VL: DIQLTQSPSSLSASVGDRVTLTCQASQDIRKFLNWYQQKPGKGPKLLIYDASNLQRGVPSRFSGGGSGTDFTLIISSLQPEDVGTYYCQQYDGLPFTFGGGTKVVIK
notes: also called C05 Fab; C05 antibody; not shown: His6, C-terminal, kept
B1: binds [1]; no binding [2].
